{"source": "the supplement of paper PMC9262897", "about": "“Low-cost anti-mycobacterial drug discovery using engineered E. coli” (Nature Communications, 2022)", "system": "E. coli TESEC Mtb Alr", "assay": "growth (OD600 after 10 h); higher = more growth (less inhibition)", "details": "compound 0.1 mM", "procedure": "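TESEC Mtb Alr E. coli, or the Alr+ wild-type control, in 384-well plates with Prestwick library compounds at 0.1 mM and 1% DMSO, across arabinose induction levels of 1E3 to 1E7 nM. Growth is read as OD600 after 10 h at 37 °C in triplicate biological replicates.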", "note": "± gives the standard deviation of the averaged measurements. Only a part is listed here, and it is no random draw.", "data": [{"compound": "COc1cc(Br)c(C[N+]2(CCOCCC3CCC4CC3C4(C)C)CCOCC2)cc1OC", "note": "(stereo not given) [Pinaverium bromide]", "values": [{"measurement": "growth", "setting": "arabinose 1000 nM, raw OD600 reference: median of DMSO wells 0.294, cell-free background 0.041", "value": "0.0406 ± 0.00087"}, {"measurement": "growth", "setting": "arabinose 10000 nM, raw OD600 reference: median of DMSO wells 0.264, cell-free background 0.041", "value": "0.0406 ± 0.0013"}, {"measurement": "growth", "setting": "arabinose 100000 nM, raw OD600 reference: median of DMSO wells 0.201, cell-free background 0.041", "value": "0.0416 ± 0.0008"}, {"measurement": "growth", "setting": "arabinose 1000000 nM, raw OD600 reference: median of DMSO wells 0.193, cell-free background 0.041", "value": "0.03877 ± 0.00029"}, {"measurement": "growth", "setting": "arabinose 10000000 nM, raw OD600 reference: median of DMSO wells 0.146, cell-free background 0.041", "value": "0.0405 ± 0.0007"}]}]}
